Laboratory results as given in US20100262098A1, “ABSORBENT ARTICLE WITH ODOUR CONTROL SUBSTANCE” (SCA Hygiene Products AB, priority 2007, published 2010).

Assay: Effect of lipid on liquid uptake of treated pulp
Conditions: same amount of lipid added to pulp

SMILES: CCCCCCCCCCCCCCCCCC(=O)OCC(COC(=O)CCCCCCCCCCCCCCCCC)OC(=O)CCCCCCCCCCCCCCCCC [tristearin]
- Effect on liquid uptake of treated pulp: clear hydrophobization of the treated pulp
